Measurements taken from patent US7645881B2, “Methods for treating hepatitis C” (PTC Therapeutics, Inc., priority 2004, dated 2010).

Experiments:
HCV replicon = HCV replicon system (bicistronic replicon, Fluc reporter signal); format: cell-based, hepatitis C virus
[1] = system: HCV-poliovirus (HCV-PV) chimera
[2] = system: HCV IRES-driven translation; assay: Western blot of Fluc protein in HepGmono-4 cells (HCV IRES-driven translation); conditions: 20 hours, data not shown

| SMILES | IC50 [1] [nM] | other results |
| --- | --- | --- |
| Cc1nc2sc(C(=O)OC(C)(C)C)c(N)c2c(C)c1OC(=O)N1CCCC1 |  | IC50 (HCV replicon): > 2000 nM |
| Cc1nc2sc(C(=O)OC(C)(C)C)c(N)c2c(C)c1OC(=O)N1CCOCC1 |  | IC50 (HCV replicon): > 2000 nM |
| Nc1c(C(=O)Nc2ccc(C(F)(F)F)cc2)sc2nc3c(cc12)CCCCC3 [Compound 29] | 500 to 2000 |  |
| COc1ccc(C[C@H](N)C(=O)N[C@H]2[C@@H](O)[C@H](n3cnc4c(N(C)C)ncnc43)O[C@@H]2CO)cc1 [puromycin] |  | HCV IRES-driven protein production (luciferase reporter protein level, Western blot) [2]: inhibited |
| CN1CCN(C(=O)c2sc3nc4c(c(C(F)(F)F)c3c2N)CCCCC4)CC1 [Compound 5] | 500 to 2000 |  |
| CC(C)(C)OC(=O)c1sc2nc3c(c(-c4cccs4)c2c1N)CCCC3 [Compound 34] | 500 to 2000 |  |
| CCc1c(C)nc2sc(N)c(C#N)c2c1C [Compound 35, 2-amino-5-ethyl-4,6-dimethylthieno[2,3-b]pyridine-3-carbonitrile] | < 500 |  |
